PubChem BioAssay AID1259414 | Drosophila RNAi Screening Center – 2018

- Aim: 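Genome-wide screen for host control of endosymbiont load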 (primary screen)
- Cell system: Drosophila JW18 cells infected with Wolbachia
- Knock-down reagent: long dsRNA against Drosophila genes, 0.25 µg dsRNA per well of a 384-well plate
- Duration: 5 days
- Conditions: cells persistently infected with Wolbachia before knock-down; no added drug
- Read-out: 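Imaged fluorescence in situ signal for Wolbachia 23S rRNA per DAPI-counted host cell, given as a robust z-score within each plate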
- Reading the numbers: Wolbachia per cell robust z: higher = more Wolbachia per host cell than the plate typical
- Active means: 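Active if absolute robust z reaches 1.5 in two or more of three replicates, leaving out multi- or no-target dsRNAs, genes unexpressed in JW18 and A1 wells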
The deposit covers about 24,000 reagents; below is an unselected part of those with a known target gene and a result. Over the whole deposit, about 1,210 (5%) are marked active. 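Inactive calls also include excluded dsRNAs with several or no targets, genes unexpressed in JW18, and well A1, regardless of score.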 Reagents against one gene are numbered here.

| gene knocked down | reagent no. | Wolbachia per cell robust z, rep 1 | Wolbachia per cell robust z, rep 2 | Wolbachia per cell robust z, rep 3 | Outcome |
| --- | --- | --- | --- | --- | --- |
| CG3251 | 1 | 0.564 | 0.229 | 1.77 | inactive |
| Gr22e | 1 | -0.648 | 0.165 | -3.66 | inactive |
| CG7606 | 1 | 0.452 | 1.58 | 0.656 | inactive |
| Or22b | 1 | -0.0285 | 0.134 | -0.91 | inactive |
| Ser6 | 1 | -2.98 | -1.08 | -1.78 | inactive |
| Ser6 | 2 | 0.574 | 0.764 | -0.668 | inactive |
| par-6 | 1 | -5 | -1.65 | -0.964 | active |
| par-6 | 2 | -0.588 | -0.981 | -1.4 | inactive |
| pdm2 | 1 | 0.604 | 0.25 | 0.977 | inactive |
| pdm2 | 2 | 0.0561 | -1 | -3.85 | inactive |
| CG14253 | 1 | -4.59 | -3.6 | 0.806 | active |
| CG1622 | 1 | 0.0568 | -8.93 | -0.403 | inactive |
| CG1622 | 2 | -1.2 | -1.99 | -1.74 | active |
| Pde9 | 1 | -3.21 | -0.282 | -0.519 | inactive |
| Pde9 | 2 | -0.239 | 0.0136 | 0.853 | inactive |
| Pde9 | 3 | 0.649 | -0.993 | -4.61 | inactive |
| Pde9 | 4 | -0.344 | -1.15 | -3.26 | inactive |
| Pde9 | 5 | -0.0941 | 0.677 | -0.451 | inactive |
| msl-3 | 1 | 0.0627 | 1.44 | 0.606 | inactive |
| CG14401 | 1 | 1.36 | 1.25 | -0.021 | inactive |
| CG14401 | 2 | -0.532 | -0.314 | -1.16 | inactive |
| CG14401 | 3 | 1.07 | 1.3 | 0.616 | inactive |
| Tim17b | 1 | 0.509 | -6.16 | -0.394 | inactive |
| CG17075 | 1 | 1.07 | 1.67 | -1.03 | inactive |
| CG17075 | 2 | 0.854 | 0.502 | 1.3 | inactive |
| CG5327 | 1 | -0.527 | -2.97 | -2.83 | inactive |
| GM130 | 1 | -0.502 | 0.392 | -0.389 | inactive |
| Coq7 | 1 | -2.22 | -0.594 | -6.86 | active |
| Or9a | 1 | -0.0377 | -3.3 | 0.0627 | inactive |
| Or9a | 2 | -0.465 | -2.13 | -1.42 | inactive |
| ash2 | 1 | -0.593 | 0.504 | 0.711 | inactive |
| CG42331 | 1 | 0.0883 | -1.82 | 0.133 | inactive |
| CG42331 | 2 | -4.31 | -1.91 | -4.66 | inactive |
| CG42331 | 3 | -0.538 | 0.752 | -0.27 | inactive |
| CG14722 | 1 | 0.434 | -0.563 | -2.54 | inactive |
| CG14722 | 2 | -0.689 | 0.486 | 0.511 | inactive |
| CG14722 | 3 | 0.569 | 0.603 | 1.19 | inactive |
| Pgls | 1 | 0.57 | 0.537 | -1.94 | inactive |
| Nup75 | 1 | 0.554 | 1.37 | 1.37 | inactive |
| Nup75 | 2 | 0.805 | 0.673 | 1.89 | inactive |
| CG8046 | 1 | 0.917 | 0.985 | -0.428 | inactive |
| CG4627 | 1 | -0.245 | -4.29 | -2.39 | active |
| CG13384 | 1 | 0.0468 | 0.436 | 1.14 | inactive |
| CG4957 | 1 | 1.17 | 0.229 | 0.795 | inactive |
| CG4957 | 2 | -0.678 | -0.405 | -1.57 | inactive |
| Syx6 | 1 | -0.0242 | 0.896 | -0.00187 | inactive |
| Syx6 | 2 | 1.5 | 1.21 | 0.842 | inactive |
| CG31404 | 1 | 0.086 | -0.0517 | -5.98 | inactive |
| CG31404 | 2 | 0.0175 | 0.194 | 0.938 | inactive |
| Grx3 | 1 | -0.353 | 0.369 | -0.218 | inactive |
| Spn28Da | 1 | 1.01 | -0.449 | 0.482 | inactive |
| CG9240 | 1 | -1.58 | -1.95 | -2.26 | inactive |
| CG3492 | 1 | 0.447 | -0.455 | 0.373 | inactive |
| CG31872 | 1 | -2.66 | -4.78 | 0.564 | inactive |
| CG31872 | 2 | -0.707 | -1.19 | -0.422 | inactive |
| elm | 1 | -2.05 | 0.258 | 0.108 | inactive |
| Naa60 | 1 | 0.116 | 0.673 | 0.311 | inactive |
| Naa60 | 2 | -0.26 | 0.0841 | 0.267 | inactive |
| ergic53 | 1 | 0.944 | 1.54 | 0.974 | inactive |
| CG3961 | 1 | -0.476 | 0.211 | -4.41 | inactive |
| CG3961 | 2 | 0.283 | -0.674 | 0.609 | inactive |
| SMC1 | 1 | -0.173 | 0.759 | -0.263 | inactive |
| crb | 1 | 0.351 | 0.245 | -0.134 | inactive |
| crb | 2 | -0.339 | 1.06 | 0.0743 | inactive |
| nej | 1 | 0.576 | 0.228 | -0.184 | inactive |
| nej | 2 | 1.98 | 1.99 | 4.2 | active |
| nej | 3 | 1.01 | 0.668 | 0.588 | inactive |
| nej | 4 | 0.286 | 0.965 | 3.28 | inactive |

Looked up above.
For “Wolbachia per cell robust z, rep 1”, nej #1 shows 0.576
Entry of CG7606 in “Wolbachia per cell robust z, rep 1”: 0.452
Pde9 #4, Wolbachia per cell robust z, rep 2 → -1.15
CG3251, Outcome = inactive
CG14401 #1, Wolbachia per cell robust z, rep 1: 1.36
For “Wolbachia per cell robust z, rep 2”, Or9a #1 has -3.3
